Values from PubChem BioAssay AID1259414 (Drosophila RNAi Screening Center, 2018).
The screen tested about 24,000 reagents; shown is an unselected part of those with a known target gene and a result. Over the whole deposit, about 1,210 (5%) got an active call. 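Inactive calls also include excluded dsRNAs with several or no targets, genes unexpressed in JW18, and well A1, regardless of score.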

Purpose: 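Genome-wide screen for host control of endosymbiont load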 (primary screen)
System: Drosophila JW18 cells infected with Wolbachia
Reagent: long dsRNA against Drosophila genes, 0.25 µg dsRNA per well of a 384-well plate
Timing: 5 days
Challenge: cells persistently infected with Wolbachia before knock-down; no added drug
Measured: 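Imaged fluorescence in situ signal for Wolbachia 23S rRNA per DAPI-counted host cell, given as a robust z-score within each plate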
Direction: Wolbachia per cell robust z: higher = more Wolbachia per host cell than the plate typical
Active means: 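Active if absolute robust z reaches 1.5 in two or more of three replicates, leaving out multi- or no-target dsRNAs, genes unexpressed in JW18 and A1 wells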

target gene	dsRNA	Wolbachia per cell robust z, rep 1	Wolbachia per cell robust z, rep 2	Wolbachia per cell robust z, rep 3	call
CAH1	DRSC29399	-0.695	0.18	-0.574	inactive
DnaJ-1	DRSC11145	1.32	-0.187	1.03	inactive
DnaJ-1	DRSC40732	0.994	0.644	0.302	inactive
ng4	DRSC18805	-2.51	-1.89	-0.0358	inactive
CG10912	DRSC06009	-0.533	-0.816	-0.224	inactive
CG10912	DRSC25420	-0.22	-1.07	-0.813	inactive
CG9459	DRSC16496	-3.42	0.94	1.19	inactive
Mst84Db	DRSC12542	-2.29	0.2	0.908	inactive
Mst84Db	DRSC12598	-0.687	0.502	0.303	inactive
Mst84Db	DRSC29236	0.468	0.341	1.09	inactive
SmE	DRSC02680	0.721	-0.598	2.27	inactive
lncRNA:CR40053	DRSC20833	0.395	-0.224	0.317	inactive
lncRNA:CR40053	DRSC28469	-0.536	-0.909	-1.33	inactive
lncRNA:CR40053	DRSC29968	-0.0614	0.519	-0.327	inactive
CG32726	DRSC17521	0.137	0.482	0.277	inactive
CG32726	DRSC41486	0.0518	-1.93	0.335	inactive
CG7218	DRSC16216	0.258	-0.946	0.245	inactive
CG7218	DRSC27550	-0.0392	-1.13	0.28	inactive
CG13502	DRSC04147	0.323	0.812	-0.533	inactive
CG13502	DRSC26374	0.504	-0.401	-1.15	inactive
mt:ATPase6	DRSC40608	-0.157	-0.327	-0.702	inactive
CG9500	DRSC03237	1.13	0.931	0.612	inactive
FAM21	DRSC06623	0.106	0.711	-0.207	inactive
FAM21	DRSC26589	0.725	-0.0137	0.129	inactive
FAM21	DRSC39034	0.08	0.527	-1.18	inactive
fidipidine	DRSC07618	-0.265	-1.11	-0.01	inactive
fidipidine	DRSC25394	-0.296	-0.791	-0.736	inactive

The list goes on (4 carried over from the part before).
target gene	dsRNA	Wolbachia per cell robust z, rep 1	Wolbachia per cell robust z, rep 2	Wolbachia per cell robust z, rep 3	call
FAM21	DRSC26589	0.725	-0.0137	0.129	inactive
FAM21	DRSC39034	0.08	0.527	-1.18	inactive
fidipidine	DRSC07618	-0.265	-1.11	-0.01	inactive
fidipidine	DRSC25394	-0.296	-0.791	-0.736	inactive
Pus7	DRSC10703	0.772	-0.911	-0.472	inactive
Pus7	DRSC27484	1.08	-0.634	0.887	inactive
salto	DRSC06291	-4.2	-6.82	-1.72	inactive
salto	DRSC29983	-6.3	0.894	0.21	inactive
Trap1	DRSC05019	-3.3	-0.386	-1.7	active
ninaE	DRSC17014	-0.785	-0.292	-0.875	inactive
ninaE	DRSC25724	-0.354	1.25	0.874	inactive
Drice	DRSC16715	0.0659	0.791	0.598	inactive
Drice	DRSC27804	0.126	0.512	-1.01	inactive
ssp6	DRSC08791	0.102	-0.177	-2.44	inactive
ssp6	DRSC10677	0.556	0.0511	0.281	inactive
ssp6	DRSC27709	0.446	1.7	0.462	inactive
CG9380	DRSC04549	0.218	-1.05	-0.026	inactive
Mat89Ba	DRSC14540	-0.219	-0.761	-0.572	inactive
Mat89Ba	DRSC29166	-0.0485	-1.74	-0.929	inactive
e(y)3	DRSC19450	0.296	-0.924	1.59	inactive
e(y)3	DRSC23698	1.16	-0.722	0.162	inactive
CG13614	DRSC14617	-0.0587	-1.34	0.11	inactive
TyrRS	DRSC10430	0.732	1.15	-2.01	inactive
TyrRS	DRSC27145	-0.0266	-0.0485	0.368	inactive
